Measured values from several laboratories, pooled; numbers as filed in NIAID ChemDB.

Shared fields: whole-cell or culture tests; organism: Candida albicans

Rows are shuffled and stem from different studies. a–b is a range or a potency band. A number after MIC or MFC names an inhibition level or a share of isolates. ECn: concentration that inhibits the pathogen or its effect by n%. An empty or dashed field is not shown.

compound	method	read-out	strain	result
CN(C/C=C/C#CC(C)(C)C)Cc1cccc2ccccc12	broth dilution	MIC50	9 clinical isolates	4 µg/mL
COc1cc(O)c(C(C)=O)c(OC)c1		MIC		25 µg/mL
C[C@@H]1[C@H](O)[C@@H](C)/C=C/C=C/CC/C=C/C=C/C=C/C=C/C(O[C@H]2O[C@H](C)[C@@H](O)[C@H](N)[C@@H]2O)CC2O[C@](O)(CC(O)C(O)CCC(O)CC(O)CC(O)CC(=O)O[C@H]1C)CC(O)C2C(=O)O	agar diffusion / agar	EC50	75 strains	<10 µg/mL
COc1cc(/C=C/NC(=O)C2CCCN2C)c(Br)cc1Br		MIC		142.8 µg/mL
COc1ccc2nc(Sc3ccccc3)c(C3C(C#N)=C(N)Oc4cc(C)oc(=O)c43)cc2c1	broth dilution	MIC	MTCC 227	1000 µg/mL
NC(=NCCCCCCN=C(N)/N=C(\N)Nc1ccc(Cl)cc1)/N=C(\N)Nc1ccc(Cl)cc1	broth dilution	MIC	ATCC 10231	200 µg/mL
C[C@H]1[C@H](O)[C@@H](C)/C=C/C=C/C=C/C=C/C=C/C=C/C=C/[C@H](O[C@@H]2O[C@H](C)[C@@H](O)[C@H](N)[C@@H]2O)C[C@@H]2O[C@](O)(C[C@@H](O)C[C@@H](O)CC[C@H](O)[C@@H](O)C[C@@H](O)CC(=O)O[C@H]1C)C[C@H](O)[C@H]2C(=O)O	broth dilution	MIC90	ATCC 90028	2 µg/mL
CCCC1=[N+](CCC)CCc2cc(O)c(O)cc21		MIC	IFO1061	>500 µg/mL
c1cc2c(cc1[C@H]1OC[C@H]3[C@@H]1CO[C@@H]3c1ccc3c(c1)OCO3)OCO2		MIC		>50 µg/mL
C=C[C@]1(C)C=C2c3c[nH]c4cccc(c34)C(C)(C)[C@H]2C[C@H]1O		MIC		>100 µM
O=C1NCN(c2ccccc2)C12CCN(CCCC(c1ccc(F)cc1)c1ccc(F)cc1)CC2	broth dilution	MIC		>128 µg/mL
Cc1ccc(Oc2c(C3C(C#N)=C(N)OC4=C3C(=O)CC(C)(C)C4)c(C)nn2-c2ccccc2)cc1		MIC	MTCC 227	1000 µg/mL
Nc1nc(=O)n([C@H]2CS[C@@H](CO)O2)cc1F		MIC90	206 isolates	4 µg/mL
COc1ccc(/C=C/C(=O)c2ccccc2)cc1OC		MIC	ATCC 10231	>50 µg/mL
CCCCCSc1nc2ccc(N)cc2s1		MIC	IEM 49/64	25 µg/mL
O=C(/C=C/c1ccccc1[N+](=O)[O-])c1ccccc1		MIC	ATCC 10231	>50 µg/mL
Cc1ccc2nc(Sc3ccccc3)c(C3C(C#N)=C(N)Oc4c3c(=O)oc3ccccc43)cc2c1	broth dilution	MIC	MTCC 227	250 µg/mL
CC1=C[C@H]2O[C@@H]3CC4OC(=O)/C=C\C=C\C(=O)OCC[C@H](C)[C@H](C)C(=O)OC[C@@]2(CC1)[C@]4(C)[C@]31CO1		MIC		31.25 µg/mL
CC(C)=CCC[C@H](C)C12CCC13C=CC3(C)OO2		MIC		30 µg/mL
C(=C\c1ccccc1)/CN(Cc1cccc2ccccc12)n1cnnc1		MIC		>200 µM
Cc1ccc(Oc2c(C3C(C#N)=C(N)OC4=C3C(=O)CCC4)c(C)nn2-c2ccccc2)cc1		MIC	MTCC 227	500 µg/mL
CC1CCCN(CC(C)Cc2ccc(C(C)(C)C)cc2)C1		MIC	29-3-101	56.7 µM
CCOc1ccc(Cc2c3cc(OCC)c(OCC)cc3cc(C)[n+]2C)cc1OCC		MIC	IFO1061	>500 µg/mL
CCC(C)n1ncn(-c2ccc(N3CCN(c4ccc(OC[C@H]5CO[C@](Cn6cncn6)(c6ccc(Cl)cc6Cl)O5)cc4)CC3)cc2)c1=O		MIC	Isogenic isolate 14 Erg11 (4-5X) R467K	0.06 µg/mL
CCCCc1nc([N+]#N)c(C(=O)N2CCCC2)[nH]1		MIC	ATCC 10231	200 µg/mL
CCC(C)n1ncn(-c2ccc(N3CCN(c4ccc(OC[C@H]5CO[C@](Cn6cncn6)(c6ccc(Cl)cc6Cl)O5)cc4)CC3)cc2)c1=O		MIC50	183 strains	4 µg/mL
C[C@H]1[C@H](C)CC[C@]2(C(=O)O)CC[C@]3(C)C(=CC[C@@H]4[C@@]5(C)CC[C@H](O)C(C)(C)[C@@H]5CC[C@]43C)[C@H]12		MIC	IFO1061	>200 µg/mL
CN(C)CCC=C1c2ccccc2C=Cc2ccccc21	broth dilution	MIC		64 µg/mL
Clc1ccc(C(Cn2ccnc2)OCc2ccsc2Cl)c(Cl)c1	agar diffusion / agar	EC50	75 strains	<10 µg/mL
O=c1c(O)cc([C@H]2Oc3cc(O)cc(O)c3C[C@H]2O)cc2c([C@H]3Oc4cc(O)cc(O)c4C[C@H]3O)cc(O)c(O)c12	turbidity	MIC	NCTC 3255	1024 µg/mL
C=C(Cl)/C=C/[C@H](O)CC(=C)C[C@H]1OC2[C@@H](O)[C@]3(O)C[C@@H](O)[C@H](C)[C@H](CCC/C=C\[C@@H]4C[C@@H](O)C[C@]5(C[C@H](OC)CC(CC(=O)[C@@H](C)[C@H](OC(C)=O)[C@@H](C)C(=C)C[C@@H]6C[C@@](C)(O)C[C@]7(C[C@H](OC(C)=O)CC(CC(=O)O[C@@H]([C@@H]1O)[C@H]2C)O7)O6)O5)O4)O3		MFC	ATCC 60193	3.12 µg/mL
Clc1ccc(COC(Cn2ccnc2)c2ccc(Cl)cc2Cl)cc1		MIC	IEM 49/64	5 µg/mL
CCCOc1cc2cc[n+](C)c(CC)c2cc1OCCC		MIC	IFO1061	>500 µg/mL
C=CCc1ccc(O)c(-c2ccc(O)c(CC=C)c2)c1	broth dilution	MIC	YL 353	64 µg/mL
C#CCNC(=O)c1ccc(S(N)(=O)=O)cc1		MIC50		>100 µg/mL
N#CC(O)c1ccccc1	broth dilution	MIC	ATCC 10231	750 µg/mL
C[C@@H](c1ncncc1F)[C@](O)(Cn1cncn1)c1ccc(F)cc1F		MIC90	206 isolates	0.06 µg/mL
Cc1ccc(-n2nc(C)c(C3C(C#N)=C(N)OC4=C3C(=O)CCC4)c2Oc2ccccc2)cc1		MIC	MTCC 227	250 µg/mL
[N-]=[N+]=Nc1ccc(S(N)(=O)=O)cc1		MIC50		>100 µg/mL
CC(CP(c1ccccc1)c1ccccc1)(CP(c1ccccc1)c1ccccc1)CP(c1ccccc1)c1ccccc1		MIC		500 µg/mL
C[N+]1=CC2C(=O)c3nccc4ccnc(c34)C2C1		MIC80		>64 µg/mL
Cc1ccc(Oc2c(C3C(C#N)=C(N)OC4=C3C(=O)CC(C)(C)C4)c(C)nn2-c2ccc(C)cc2)cc1		MIC	MTCC 227	>1000 µg/mL
CC1=C[C@H]2O[C@@H]3CC4OC(=O)/C=C\C=C\C(C(C)O)OCC[C@H](C)[C@H](C)C(=O)OC[C@@]2(CC1)[C@]4(C)[C@]31CO1		MIC		125 µg/mL
CN(C/C=C/C#CC(C)(C)C)Cc1cccc2ccccc12		MIC50		25 µg/mL
Cc1nn(-c2ccccc2)c(Oc2ccc(Cl)cc2)c1C1C(C#N)=C(N)OC2=C1C(=O)CC(C)(C)C2		MIC	MTCC 227	250 µg/mL
O=[N+]([O-])C1Cc2[se]nnc2-c2ccccc21		MIC		12.5 µg/mL
NS(=O)(=O)c1ccc(C(=O)O)cc1		MIC50		>100 µg/mL
CCC(C)(C)c1ccc(CC(C)CN2C[C@@H](C)O[C@@H](C)C2)cc1		MIC	IEM 49/64	5 µg/mL
N#[N+]c1nc(-c2ccc([N+](=O)[O-])cc2)[nH]c1C(=O)N1CCCC1		MIC	ATCC 10231	100 µg/mL
CCCCCOc1ccc(-c2ccc(-c3ccc(C(=O)N[C@H]4C[C@@H](O)[C@@H](O)NC(=O)[C@@H]5[C@@H](O)[C@@H](C)CN5C(=O)[C@H]([C@H](C)O)NC(=O)[C@H]([C@H](O)[C@@H](O)c5ccc(O)cc5)NC(=O)[C@@H]5C[C@@H](O)CN5C(=O)[C@H]([C@H](C)O)NC4=O)cc3)cc2)cc1		MIC50	183 strains	0.06 µg/mL
CCc1nc([N+]#N)c(C(=O)N2CCCC2)[nH]1		MIC	ATCC 10231	200 µg/mL
C(=C\c1ccccc1)/CN(Cc1cccc2ccccc12)n1cncn1		MIC		>200 µM
CC(=O)OC[C@]12CC[C@]3(C(C)C)C1=C1C(CC4[C@@]5(C)CC[C@H](OC(C)=O)C(C)(C)C5CC[C@@]4(C)[C@]1(C)CC2)n1c(=O)n(-c2ccc4c(c2)OCO4)c(=O)n13	broth dilution	MIC90	ATCC 90028	4.4 µg/mL
CC/C(=C(\c1ccccc1)c1ccc(OCCN(C)C)cc1)c1ccccc1	broth dilution	MIC		32 µg/mL
COc1ccc(OC)c2c1CCc1snnc1-2		MIC		12.5 µg/mL
COc1ccc2nc(Sc3ccc(C)cc3)c(C3C(C#N)=C(N)Oc4c3c(=O)oc3ccc(C)cc43)cc2c1	broth dilution	MIC	MTCC 227	>1000 µg/mL
C/C=C\C(C)=C\[C@H](C)C(=O)C[C@H](O)CC1CC(=O)NC(=O)C1		MIC	IFO 1594	>100 µg/mL
COc1cc2cc(/C=C/C(=O)c3ccccc3)c(Cl)nc2cc1OC		MIC	ATCC 10231	>50 µg/mL
CC(CCC(=O)NCCC[N+](C)(C)CCCS(=O)(=O)[O-])C1CCC2C3C(C[C@H](O)C12C)C1(C)CC[C@@H](O)C[C@H]1C[C@H]3O		MIC		>500 µg/mL
CCCc1nc([N+]#N)c(C(=O)N2CCCC2)[nH]1		MIC	ATCC 10231	200 µg/mL
O=C1CC23C=CCN4CC[C@H]5c6ccccc6N1C42[C@@H]5CC3		MIC		>500 µg/mL
C[C@@H](c1ncncc1F)[C@](O)(Cn1cncn1)c1ccc(F)cc1F	broth dilution	MIC90	9 clinical isolates	0.25 µg/mL
OC(Cn1cncn1)(Cn1cncn1)c1ccc(F)cc1F		MIC	ATCC 90028	0.25 µg/mL
CC(C)C(C)/C=C/[C@@H](C)[C@H]1CCC2C3C[C@@H](O)[C@@]4(O)C[C@@H](O)CC[C@]4(C)C3CC[C@@]21C		MIC		250 µg/mL
CC(C)=CCC[C@H](C)c1ccc(C)cc1		MIC		>50 µg/mL
COc1ccc([Se][Se]c2ccc(OC)cc2)cc1		EC50		2–10 µM
Clc1ccc(COC(Cn2ccnc2)c2ccc(Cl)cc2Cl)c(Cl)c1		MIC		>10 µg/mL
c1ccc([Te][Te]c2ccccc2)cc1		EC50		2–10 µM
CSc1ccc2c(c1)C(N1CCN(C)CC1)Cc1ccccc1S2	broth dilution	MIC		64 µg/mL
Clc1ccccc1C(c1ccccc1)(c1ccccc1)n1ccnc1	agar diffusion / agar	EC50	75 strains	<10 µg/mL
O=[N+]([O-])c1cccc2c1CCc1snnc1-2		MIC		12.5 µg/mL
Cc1nccc2cc(O)c(O)cc12		MIC	IFO1061	>500 µg/mL
N#[N+]c1nc(-c2cccc(F)c2)[nH]c1C(=O)N1CCCC1		MIC	ATCC 10231	100 µg/mL
C[C@H]1[C@H](O)[C@@H](C)/C=C/C=C/C=C/C=C/C=C/C=C/C=C/[C@H](O[C@@H]2O[C@H](C)[C@@H](O)[C@H](N)[C@@H]2O)C[C@@H]2O[C@](O)(C[C@@H](O)C[C@@H](O)CC[C@H](O)[C@@H](O)C[C@@H](O)CC(=O)O[C@H]1C)C[C@H](O)[C@H]2C(=O)O		MIC	ATCC 24433	0.06 µg/mL

Repeating the first 6 entries:

compound | method | read-out | strain | result
CN(C/C=C/C#CC(C)(C)C)Cc1cccc2ccccc12 | broth dilution | MIC50 | 9 clinical isolates | 4 µg/mL
COc1cc(O)c(C(C)=O)c(OC)c1 |  | MIC |  | 25 µg/mL
C[C@@H]1[C@H](O)[C@@H](C)/C=C/C=C/CC/C=C/C=C/C=C/C=C/C(O[C@H]2O[C@H](C)[C@@H](O)[C@H](N)[C@@H]2O)CC2O[C@](O)(CC(O)C(O)CCC(O)CC(O)CC(O)CC(=O)O[C@H]1C)CC(O)C2C(=O)O | agar diffusion / agar | EC50 | 75 strains | <10 µg/mL
COc1cc(/C=C/NC(=O)C2CCCN2C)c(Br)cc1Br |  | MIC |  | 142.8 µg/mL
COc1ccc2nc(Sc3ccccc3)c(C3C(C#N)=C(N)Oc4cc(C)oc(=O)c43)cc2c1 | broth dilution | MIC | MTCC 227 | 1000 µg/mL
NC(=NCCCCCCN=C(N)/N=C(\N)Nc1ccc(Cl)cc1)/N=C(\N)Nc1ccc(Cl)cc1 | broth dilution | MIC | ATCC 10231 | 200 µg/mL